Results of unrelated studies side by side (data: NIAID ChemDB).

All rows: growth or infection tests; species: Candida albicans; endpoint: MIC90

Neighbouring rows are from separate reports.

SMILES,strain or isolate,conditions,value
Fc1ccccc1COc1ccc(C(c2cccc3ccccc23)n2ccnc2)cc1.O=[N+]([O-])O,16 strains,-,≥256 µg/mL
COc1ccc(C(Cc2c(Cl)cccc2Cl)n2ccnc2)cc1,34 strains,-,64 µg/mL
CCC(c1ccc(OC)cc1)C(c1ccc(OC)cc1)n1cncn1,28 strains,-,>256 µg/mL
C[C@H]1[C@H](O)[C@@H](C)/C=C/C=C/C=C/C=C/C=C/C=C/C=C/[C@H](O[C@@H]2O[C@H](C)[C@@H](O)[C@H](N)[C@@H]2O)C[C@@H]2O[C@](O)(C[C@@H](O)C[C@@H](O)CC[C@H](O)[C@@H](O)C[C@@H](O)CC(=O)O[C@H]1C)C[C@H](O)[C@H]2C(=O)O,-,-,1 µg/mL
CCCCCCCCCCCCCCCCOP(=O)([O-])OCC[N+](C)(C)C,-,-,2 µg/mL
COc1ccc(C(=O)C(Cc2ccc(Cl)cc2Cl)c2ccc(Cl)cc2)cc1,28 strains,-,256 µg/mL
IC(I)=C(I)CC1N=CN=N1,13 strains,-,0.39 µg/mL
Clc1ccc(C(Cn2cncn2)OCc2ccc3c(c2)OCO3)c(Cl)c1,-,-,>100 µg/mL
C=CCSS(=O)CC=C,ATCC 14053,-,0.1 µg/mL
C[C@H]1[C@H](O)[C@@H](C)/C=C/C=C/C=C/C=C/C=C/C=C/C=C/[C@H](O[C@@H]2O[C@H](C)[C@@H](O)[C@H](N)[C@@H]2O)C[C@@H]2O[C@](O)(C[C@@H](O)C[C@@H](O)CC[C@H](O)[C@@H](O)C[C@@H](O)CC(=O)O[C@H]1C)C[C@H](O)[C@H]2C(=O)O,19 strains,-,1 µg/mL
CCS(=O)(=O)C(F)(F)C(O)(Cn1cncn1)c1ccc(F)cc1F,6 strains (fluconazole-resistant),-,>16 µg/mL
COc1ccc(CC(c2ccc(OC)cc2)n2cncn2)cc1,28 strains,-,>256 µg/mL
C[C@@H](SC1COC(/C=C/C=C/c2ccc(C#N)cc2F)OC1)[C@](O)(Cn1cncn1)c1ccc(F)cc1F,139 strains,-,≤0.008 µg/mL
OC(Cn1cncn1)(Cn1cncn1)c1ccc(F)cc1F,-,-,0.78 µg/mL
CO/N=C1\C2CCCC1(C)C(c1cccc(OC)c1)NC2c1cccc(OC)c1,-,-,>128 µg/mL
COc1ccc(COC(Cn2cncn2)c2ccc(Cl)cc2Cl)cc1OC,-,-,>100 µg/mL
O=[N+]([O-])O.c1coc(C(c2nccc3ccccc23)n2ccnc2)c1,44 strains,-,>256 µg/mL
Cc1c2n(c3ccccc13)CCNC2c1ccc(F)cc1,-,-,125 µg/mL
CCC(C)n1ncn(-c2ccc(N3CCN(c4ccc(OC[C@H]5CO[C@](Cn6cncn6)(c6ccc(Cl)cc6Cl)O5)cc4)CC3)cc2)c1=O,63 isolates,-,0.015 µg/mL
C=CCSS(=O)CC=C.OC(Cn1cncn1)(Cn1cncn1)c1ccc(F)cc1F,ATCC 14053,-,0.25 µg/mL
CCCCCOc1ccc(-c2ccc(-c3ccc(C(=O)N[C@H]4C[C@@H](O)[C@@H](O)NC(=O)[C@@H]5[C@@H](O)[C@@H](C)CN5C(=O)[C@H]([C@H](C)O)NC(=O)[C@H]([C@H](O)[C@@H](O)c5ccc(O)cc5)NC(=O)[C@@H]5C[C@@H](O)CN5C(=O)[C@H]([C@H](C)O)NC4=O)cc3)cc2)cc1,99 isolates,-,0.08 µg/mL
NCCNC(=O)C1=Nc2ccc(NC(=O)C3=Nc4ccc(C(=O)Nc5ccc6[nH]c(C(=O)NCCN)cc6c5)cc4C3)cc2C1,31 isolates,-,15 µg/mL
Clc1ccc(C(Cn2ccnc2)OCc2ccc3c(c2)OCO3)c(Cl)c1,-,-,10.7 µg/mL
COc1ccc(C(c2ccc3ccccc3c2)n2ccnc2)cc1,23 strains,-,64 µg/mL
COc1ccc(C(Cn2ccnc2)OCc2ccc(Cl)cc2Cl)cc1OC,-,-,>100 µg/mL
O=[N+]([O-])/C(Br)=C\c1ccc(Br)o1,138 isolates,-,2 µg/mL
COc1ccc(C(Cc2ccccc2N)n2ccnc2)cc1,34 strains,-,64 µg/mL
c1csc(C(c2cccc3ccccc23)n2ccnc2)c1,23 strains,-,32 µg/mL
COc1ccc(C(Cc2ccc(Cl)cc2)n2ccnc2)cc1,34 strains,-,32 µg/mL
Clc1cccc(Cl)c1COc1ccc(C(c2ccc3ccccc3c2)n2ccnc2)cc1.O=[N+]([O-])O,17 strains,-,≥256 µg/mL
O[C@](Cn1cncn1)(Cn1cnc(/C=C/c2ccc(OCC(F)(F)C(F)F)cc2)n1)c1ccc(F)cc1F,50 strains (fluconazole-susceptible),-,0.06 µg/mL
COc1ccc([C@@H](Cc2ccc(Cl)cc2Cl)n2ccnc2)cc1,34 strains,-,16 µg/mL
Clc1ccc(COC(Cn2ccnc2)c2cccc3ccccc23)c(Cl)c1,-,-,>100 µg/mL
CCC(c1ccc(OC)cc1)C(c1ccc(OC)cc1)n1ccnc1,28 strains,-,>256 µg/mL
Cc1c2n(c3ccccc13)CCN(CC#N)C2,-,-,250 µg/mL
CC(N1CCN(c2ccc(-n3cnn(Cc4ccc(C(F)(F)F)cc4)c3=O)cc2F)CC1)C(O)(Cn1cncn1)c1ccc(F)cc1F,51 strains (fluconazole-susceptible),-,0.09 µg/mL
Clc1ccc(COc2ccc(C(c3ccc(-c4ccccc4)cc3)n3ccnc3)cc2)cc1.O=[N+]([O-])O,16 strains,-,≥256 µg/mL
CC[C@@H]([C@H](C)O)n1ncn(-c2ccc(N3CCN(c4ccc(OC[C@@H]5CO[C@@](Cn6cncn6)(c6ccc(F)cc6F)C5)cc4)CC3)cc2)c1=O,30 isolates,-,1 µg/mL
Cc1ccc(C(C)C)cc1O,-,-,125 µg/mL
Nc1[nH]c(=O)ncc1F,Fluconazole-susceptible,-,1 µg/mL
Clc1ccc(COC(Cn2ccnc2)c2cc3ccccc3o2)c(Cl)c1,-,-,62 µg/mL
CC[C@@H]([C@H](C)O)n1ncn(-c2ccc(N3CCN(c4ccc(OC[C@@H]5CO[C@@](Cn6cncn6)(c6ccc(F)cc6F)C5)cc4)CC3)cc2)c1=O,156 isolates,-,0.125 µg/mL
C[C@H]1[C@H](O)[C@@H](C)/C=C/C=C/C=C/C=C/C=C/C=C/C=C/[C@H](O[C@@H]2O[C@H](C)[C@@H](O)[C@H](N)[C@@H]2O)C[C@@H]2O[C@](O)(C[C@@H](O)C[C@@H](O)CC[C@H](O)[C@@H](O)C[C@@H](O)CC(=O)O[C@H]1C)C[C@H](O)[C@H]2C(=O)O,34 isolates,-,0.5 µg/mL
CCC(C)n1ncn(-c2ccc(N3CCN(c4ccc(OC[C@H]5CO[C@](Cn6cncn6)(c6ccc(Cl)cc6Cl)O5)cc4)CC3)cc2)c1=O,34 isolates,-,0.13 µg/mL
CCCCCCCCOc1ccc(-c2ccc(C(=O)NC3CC(NCCN)CNC(=O)[C@@H]4[C@@H](O)[C@@H](C)CN4C(=O)[C@@H](CO)NC(=O)[C@H]([C@H](O)Cc4ccccc4)NC(=O)[C@@H]4C[C@@H](O)CN4C(=O)[C@H]([C@@H](C)O)NC3=O)cc2)cc1,30 isolates fluconazole-susceptible,-,0.25 µg/mL
Clc1ccc(COC(Cn2cncn2)c2cc3ccccc3o2)c(Cl)c1,-,-,>100 µg/mL
Cc1c2n(c3ccccc13)CCNC2c1ccc(Cl)cc1,-,-,15.62 µg/mL
CC(N1CCN(c2ccc(-n3cnn(Cc4ccc(OC(F)(F)F)cc4)c3=O)cc2)CC1)C(O)(Cn1cncn1)c1ccc(F)cc1F,51 strains (fluconazole-susceptible),-,0.09 µg/mL
COc1ccc(C(Cc2ccc(F)cc2)n2ccnc2)cc1,34 strains,-,64 µg/mL
Clc1ccc(C(c2cccc3ccccc23)n2ccnc2)cc1,23 strains,-,8 µg/mL
c1ccc(Cc2ccc(C(c3nccc4ccccc34)n3ccnc3)cc2)cc1,44 strains,-,32 µg/mL
C[C@H]1[C@H](O)[C@@H](C)/C=C/C=C/C=C/C=C/C=C/C=C/C=C/[C@H](O[C@@H]2O[C@H](C)[C@@H](O)[C@H](N)[C@@H]2O)C[C@@H]2O[C@](O)(C[C@@H](O)C[C@@H](O)CC[C@H](O)[C@@H](O)C[C@@H](O)CC(=O)O[C@H]1C)C[C@H](O)[C@H]2C(=O)O,37 isolates,-,0.5 µg/mL
CC[C@@H]([C@H](C)O)n1ncn(-c2ccc(N3CCN(c4ccc(OC[C@@H]5CO[C@@](Cn6cncn6)(c6ccc(F)cc6F)C5)cc4)CC3)cc2)c1=O,-,-,0.063 µg/mL
COc1ccc(C(Cc2cccc(F)c2)n2ccnc2)cc1,34 strains,-,256 µg/mL
CCC(C)CC(C)CCCCCCCCC(=O)N[C@H]1C[C@@H](O)[C@H](NCCN)NC(=O)[C@@H]2[C@@H](O)CCN2C(=O)[C@H]([C@H](O)CCN)NC(=O)[C@H]([C@H](O)[C@@H](O)c2ccc(O)cc2)NC(=O)[C@@H]2C[C@@H](O)CN2C(=O)[C@H]([C@@H](C)O)NC1=O,40 isolates,-,0.5 µg/mL
Cc1c2n(c3ccccc13)CCN(Cc1ccc3n[nH]nc3c1)C2,-,-,250 µg/mL
Clc1ccc(C(c2ccc3ccccc3c2)n2ccnc2)cc1,23 strains,-,8 µg/mL
C[C@@H](c1nc(-c2ccc(C#N)cc2)cs1)[C@](O)(Cn1cncn1)c1ccc(F)cc1F,-,-,0.025 µg/mL
OC(Cn1cncn1)(Cn1cncn1)c1ccc(F)cc1F,63 isolates,48 h,6.4 µg/mL
CCC(C)n1ncn(-c2ccc(N3CCN(c4ccc(OC[C@H]5CO[C@](Cn6cncn6)(c6ccc(Cl)cc6Cl)O5)cc4)CC3)cc2)c1=O,1992 isolates,-,0.12 µg/mL
COc1ccc(C(C(Cc2ccc(Cl)cc2Cl)c2ccc(Cl)cc2)n2cncn2)cc1,28 strains,-,256 µg/mL
C[C@@H](c1ncncc1F)[C@](O)(Cn1cncn1)c1ccc(F)cc1F,100 isolates,-,0.5 µg/mL

Repeating the final 3 entries:

SMILES	strain or isolate	conditions	value
CCC(C)n1ncn(-c2ccc(N3CCN(c4ccc(OC[C@H]5CO[C@](Cn6cncn6)(c6ccc(Cl)cc6Cl)O5)cc4)CC3)cc2)c1=O	1992 isolates	-	0.12 µg/mL
COc1ccc(C(C(Cc2ccc(Cl)cc2Cl)c2ccc(Cl)cc2)n2cncn2)cc1	28 strains	-	256 µg/mL
C[C@@H](c1ncncc1F)[C@](O)(Cn1cncn1)c1ccc(F)cc1F	100 isolates	-	0.5 µg/mL

An empty or dashed field is not shown. A number after MIC or MFC names an inhibition level or a share of isolates.